Compound potency records, mixed from different reports. Data source: NIAID ChemDB in PubChem.

All rows: cytotoxicity tests; endpoint: CC50

CCn: concentration that lowers growth or viability of the cells by n%.

smiles,conditions,read by,cells,value
CC(=O)N(O)CCCCCNC(=O)CCC(=O)N(O)CCCCCNC(=O)CCC(=O)N(O)CCCCCN,-,-,PBLC,<100 µM
O=c1[nH]c(=O)n([C@H]2C[C@H](O)[C@@H](COP3(=O)OCc4cc(-c5ccccc5)ccc4O3)O2)cc1/C=C/Br,-,-,HELF,16.5 µg/mL
CC(C)OC(=O)C(CCSC[C@H]1O[C@@H](n2ccc3c(N)ncnc32)[C@H](O)[C@@H]1O)NC(=O)C(F)(F)F,-,-,PRK/E6SM,200 µg/mL
CCCN(CCC)c1c([N+](=O)[O-])cc(C(=O)NC)cc1[N+](=O)[O-],-,-,MDCK cells,96 µM
Nc1ccn(C[C@@H](CO)OCP(=O)(O)O)c(=O)n1,-,-,BCBL-1,95 µg/mL
Nc1ccn([C@H]2CC[C@@H](CO)O2)c(=O)n1,-,-,JM,0.5 µM
C[C@@]1(CO)[C@H](O)CC[C@@]2(C)[C@H]1CC[C@H]1C[C@@H]3C[C@@]12CC[C@]3(O)CO,-,-,HeLa,210 µM
CN(C)CCCNc1ccc(C(=O)CCCN2CCC(O)(c3ccc(Cl)cc3)CC2)cc1,-,-,COSA5,200 µM
CCC(CC)Nc1c([N+](=O)[O-])cc(S(N)(=O)=O)cc1[N+](=O)[O-],-,-,MDCK cells,85.9 µM
COC(=O)C(N)CCSC[C@H]1O[C@@H](n2ccc3c(N)ncnc32)[C@H](O)[C@@H]1O,-,-,PRK/E6SM,>400 µg/mL
CC(C)OC(=O)[C@H](C)N[P@](=O)(OC[C@H]1O[C@@](C#N)(c2ccc3c(N)ncnn23)[C@](C)(O)[C@@H]1OC(=O)C(C)C)Oc1ccccc1,-,ATP,AD38,>100 µM
O=[N+]([O-])c1cc(C(F)(F)F)cc([N+](=O)[O-])c1N1CCCCC1,-,-,MDCK cells,>80 µM
O=C(CCCN1CCC(O)(c2ccc(Cl)cc2)CC1)c1ccc(N2CCCCC2)cc1,-,-,COSA5,100 µM
CCCCCCCCCC(=O)O[C@H]1C[C@H](n2cc(/C=C/Br)c(=O)[nH]c2=O)O[C@@H]1COP1(=O)OCc2cccc(C)c2O1,-,-,HELF,71.2 µg/mL
COC(=O)[C@H](C)NP(=O)(OC[C@H]1C/C1=C\n1cnc2c(=O)[nH]c(N)nc21)Oc1ccccc1,-,-,H-1,>50 µM
CCC(NC(=O)C1CCC1C(=O)[C@@H](NC(=O)[C@@H](NC(=O)c1cnccn1)C1CCCCC1)C(C)(C)C)C(=O)C(=O)NC1CC1,-,-,PBM,>100 µM
CCN(CC)c1cccc(C2(O)CCN(CCCC(=O)c3ccc(F)cc3)CC2)c1,-,-,COSA5,130 µM
Cc1cc(NS(=O)(=O)c2ccc(N3C(=O)CSC3c3c(F)cccc3F)cc2)no1,-,MTT,HCT116,>100 µg/mL
COC(=O)[C@H](C)NP(=O)(OC[C@H]1C/C1=C/n1cnc2c(=O)[nH]c(N)nc21)Oc1ccccc1,-,-,H-1,>50 µM
C[C@@]12CC[C@]3(C1)C(C[C@@H](OC(=O)c1ccccc1)[C@H]1[C@](C)(C(=O)O)CCC[C@@]13C)C[C@@H]2O,-,-,HeLa,45.5 µM
CC(C)(C)NC(=O)NC(=S)NC(=O)C1C(/C=C(/Cl)C(F)(F)F)C1(C)C,-,MTS,MDCK,>300 µM
CC(=O)c1cc(O)c(O)c(=O)cc1C,3 d,MTS,PHH,>100 µM
O=c1[nH]cnc2c1ncn2[C@H]1CC[C@@H](CO)O1,-,-,CFU-GM,>400 µM
COc1ccc2c(c1)COP(=O)(OC[C@H]1O[C@@H](n3cc(/C=C/Br)c(=O)[nH]c3=O)C[C@@H]1O)O2,-,-,HELF,>128 µg/mL
COc1cc(OC)n2sc(=NC(=O)COc3ccc(Cl)cc3Cl)nc2n1,-,MTS,MDCK,>300 µM
CC(=O)CCC(=O)O[C@H]1C[C@H](n2cc(/C=C/Br)c(=O)[nH]c2=O)O[C@@H]1COP1(=O)OCc2ccccc2O1,-,-,HELF,>128 µg/mL
Nc1nc(=O)n([C@@H]2O[C@H](CO)[C@@H](O)[C@@H]2F)cc1I,-,-,WI-38,4 µM
Cc1cc(C)nc(NC(=O)NC(=O)c2c(F)cccc2F)n1,-,MTS,MDCK,>300 µM
CCCCN(CCCC)c1ccc(C2(O)CCN(CCCC(=O)c3ccc(F)cc3)CC2)cc1,-,-,COSA5,10 µM
COc1cc(OC)nc(NC(=O)NC(=O)c2c(F)cccc2F)n1,-,MTS,MDCK,>300 µM
Nc1nc2c(ncn2COC2COP(=O)(O)OC2)c(=O)[nH]1,-,-,HEF,62 µg/mL
CC(C)(C)NC(=O)NC(=S)NC(=O)c1c(F)cccc1F,-,MTS,MDCK,>300 µM
Nc1nc2c(ncn2COC(CO)CO)c(=O)[nH]1,-,-,BCBL-1,90 µg/mL
NC(=O)c1cc2ccncc2c2sc3ccccc3c12,-,visual reading,MRC-5,1.3 µg/mL
Cc1cccc2c1OP(=O)(OC[C@H]1O[C@@H](n3cc(/C=C/Br)c(=O)[nH]c3=O)C[C@@H]1OC(=O)[C@H](N)C(C)C)OC2,-,-,HELF,>128 µg/mL
O=[N+]([O-])c1cc(C(F)(F)F)cc([N+](=O)[O-])c1Nc1ccccc1,-,-,MDCK cells,>80 µM
COC(=O)N[C@H](C(=O)N1CCC[C@H]1c1ncc(-c2ccc(-c3ccc(-c4cnc([C@@H]5CCCN5C(=O)[C@@H](NC(=O)OC)C(C)C)[nH]4)cc3)cc2)[nH]1)C(C)C,-,ATP,CAKI-1,25.5 µM
Nc1ncnc2c1ncn2CCOCP(=O)(O)O,-,-,PBL,50 µM
COC(=O)[C@H](C)NP(=O)(OC[C@H]1C/C1=C/n1cnc2c(OC)nc(N)nc21)Oc1ccccc1,-,-,H-1,4.6 µM
CCCCCCCCCCCCCCCCCCOCCOP(=O)(O)OC[C@H]1O[C@@H](n2cnc(C(N)=O)n2)[C@H](O)[C@@H]1O,-,neutral red,APC103,185 µM
COC(=S)P(=O)(OC)OC,-,-,BCBL-1,>200 µM
NC(=O)c1csc(C2OC(CO)C(O)C2O)c1,-,-,RAJI,8.7 µM
N#CCc1csc2ccccc12,-,visual reading,MRC-5,>100 µg/mL
O=[N+]([O-])c1cc(C(F)(F)F)cc([N+](=O)[O-])c1N(CCO)CCO,-,-,MDCK cells,65.9 µM
CC(C)[C@H](C(=O)NC(=S)NC(=O)NC(C)(C)C)c1ccc(Cl)cc1,-,MTS,MDCK,>300 µM
[O-]P([O-])(=S)C(=S)[S-],-,-,BCBL-1,>200 µM
CS(=O)(=O)Nc1ccc2c(c1)S(=O)(=O)N/C(=c1\c(=O)c3cccn3n(Cc3ccc(F)c(Cl)c3)c1=O)N2,-,-,HCV Huh-7/C24,>1 µM
C[C@]1(/C=C/Cl)C[C@](Cl)(CBr)[C@@H](Br)C[C@H]1Cl,-,-,Lul,12.9 µg/mL
COC(=O)c1cc([N+](=O)[O-])c(N2CCOCC2)c([N+](=O)[O-])c1,-,-,MDCK cells,>80 µM
COC(=S)P(=O)([O-])OC,-,-,BCBL-1,>200 µM
Nc1ncnc2c1ncn2[C@@H]1O[C@H](CO)C[C@H]1O,-,-,PRK/E6SM,100 µg/mL
C=C(CCC(C)C1CCC2C3CC=C4C[C@@H](O)CC[C@]4(C)C3CC[C@]12C)C(C)C,-,ATP / luminescence,Hs27,58 µM
Nc1ncnc2c1ncn2C[C@@H](CO)OCP(=O)(O)O,-,-,HEF,52 µg/mL
O=C([S-])P([O-])([O-])=S,-,-,BCBL-1,>200 µM
COC(=O)[C@]1(C)CCC[C@@]2(C)[C@H]1[C@H](O)CC1C[C@@H](O)[C@]3(C)CC[C@]12C3,-,-,HeLa,226 µM
CCCCCC1CC(O)CC(=O)O1,-,MTT,HepG2,751 µg/mL
COC(=O)N[C@H](C(=O)N1CCC[C@H]1c1nc2ccc(-c3csc4c(-c5ccc(-c6cnc([C@@H]7CCCN7C(=O)[C@H](NC(=O)OC)c7ccccc7)[nH]6)cc5)csc34)cc2[nH]1)C(C)C,-,resazurin,VERO E6,>50 µM
CN(C)CCNc1ccc(C(=O)CCCN2CCC(O)(c3ccc(Cl)cc3)CC2)cc1,-,-,COSA5,60 µM
CO[C@H]1/C=C/O[C@@]2(C)Oc3c(C)c(O)c4c(O)c(c(/C=N/N5CCN(C)CC5)c(O)c4c3C2=O)NC(=O)/C(C)=C\C=C\[C@H](C)[C@H](O)[C@@H](C)[C@@H](O)[C@@H](C)[C@H](OC(C)=O)[C@@H]1C,-,MTT,MCF-7,>100 µg/mL
O=C(CCCN1CCC(O)(c2ccc(NC3CCCCC3)cc2)CC1)c1ccc(F)cc1,-,-,COSA5,35 µM
C[C@@]12CC[C@]3(C1)C(C[C@@H](O)[C@H]1[C@](C)(CO)CCC[C@@]13C)C[C@H]2O,-,-,HeLa,290 µM
NS(=O)(=O)c1cc([N+](=O)[O-])c(N2CCCCC2)c([N+](=O)[O-])c1,-,-,MDCK cells,>80 µM
C[C@@H]1CC[C@H]2[C@@H](C)C(=O)O[C@@H]3OC4(C)CC[C@@H]1[C@]32OO4,-,-,MDCK,>20 µM
CCOC(=O)C(CCSC[C@H]1O[C@@H](n2ccc3c(N)ncnc32)[C@H](O)[C@@H]1O)NC(=O)COC,-,-,PRK/E6SM,>200 µg/mL
NC(=O)c1c[se]c(C2OC(CO)C(O)C2O)c1,-,-,RAJI,0.9 µM
CC(C)CCn1c(=O)/c(=C2\Nc3ccc(NS(C)(=O)=O)cc3S(=O)(=O)N2)c(=O)c2cccn21,-,-,HCV Huh-7/C24,>1 µM
Nc1ncnc2c1ncn2CC(CF)OCP(=O)(O)O,-,-,PBL,>500 µM
O=C(CCCN1CCC(O)(c2cccc(NC3CCCCC3)c2)CC1)c1ccc(F)cc1,-,-,COSA5,10 µM
O=c1[nH]c(=O)n([C@H]2C[C@H](O)[C@@H](COP3(=O)OCc4ccccc4O3)O2)cc1/C=C/Br,-,-,HELF,59.4 µg/mL
c1cc(CN2CCCNCCNCCCNCC2)ccc1CN1CCCNCCNCCCNCC1,-,MTT / absorbance,PM1,>50 µM
Nc1nccc2c1ncn2[C@@H]1O[C@H](CO)[C@@H](O)[C@H]1O,-,-,PRK/E6SM,400 µg/mL
CC(=O)OC[C@]1(C)CCC[C@@]2(C)[C@H]1[C@H](O)CC1C[C@@H](OC(C)=O)[C@]3(C)CC[C@]12C3,-,-,HeLa,36.9 µM

For reference, 8 entries again:

smiles | conditions | read by | cells | value
COC(=O)c1cc([N+](=O)[O-])c(N2CCOCC2)c([N+](=O)[O-])c1 | - | - | MDCK cells | >80 µM
Nc1ncnc2c1ncn2CCOCP(=O)(O)O | - | - | PBL | 50 µM
CC(=O)CCC(=O)O[C@H]1C[C@H](n2cc(/C=C/Br)c(=O)[nH]c2=O)O[C@@H]1COP1(=O)OCc2ccccc2O1 | - | - | HELF | >128 µg/mL
O=[N+]([O-])c1cc(C(F)(F)F)cc([N+](=O)[O-])c1N1CCCCC1 | - | - | MDCK cells | >80 µM
COC(=O)N[C@H](C(=O)N1CCC[C@H]1c1ncc(-c2ccc(-c3ccc(-c4cnc([C@@H]5CCCN5C(=O)[C@@H](NC(=O)OC)C(C)C)[nH]4)cc3)cc2)[nH]1)C(C)C | - | ATP | CAKI-1 | 25.5 µM
O=C(CCCN1CCC(O)(c2ccc(NC3CCCCC3)cc2)CC1)c1ccc(F)cc1 | - | - | COSA5 | 35 µM
O=C([S-])P([O-])([O-])=S | - | - | BCBL-1 | >200 µM
Nc1nc2c(ncn2COC2COP(=O)(O)OC2)c(=O)[nH]1 | - | - | HEF | 62 µg/mL

Lines come from different laboratories, so protocols vary. Blank or dashed fields: not listed here.